Values of other authors, collected in patent US11054415B2, “Preparation of bioconjugates and antibodies for the immunodetection of anatoxin-a” (dated 2021).

System: mice

## CC(=O)C1=CCCC2CCC1N2 (stereo not shown)
  LD50 intraperitoneal in mice: 0.25 mg/kg
